Results of unrelated studies side by side (data: NIAID ChemDB).

All rows: host cell toxicity; cell line: VERO; endpoint: CC50

Lines come from different laboratories, so protocols vary. CCn is the concentration with n% toxicity to the cells.

| structure | result |
|---|---|
| COc1ccc2nc3n[nH]c(C)c3c(Cl)c2c1 | >100 µg/mL |
| Cc1ccc2c(c1)C(=O)C(=O)N2CN1CCN(c2cc3c(cc2F)c(=O)c(C(=O)O)cn3C2CC2)CC1 | >0.02 µM |
| CCCCCCCCCCSc1ncnc2c1ncn2CC(=O)OCC | >62.5 µg/mL |
| O=c1[nH]cnc2c1ncn2C1C[C@H](CO)[C@@H](CO)C1 | >200 µg/mL |
| Nc1nc2c(ncn2OC2COC(CO)O2)c(=O)[nH]1 | >100 µg/mL |
| O=c1[nH]cnc2c1ncn2[C@H]1O[C@@H](CO)[C@H](O)C1(F)F | >100 µM |
| CSc1nsc(-c2cc[n+](C)cc2)c1C#N | 1000 µM |
| O=c1[nH]c(=O)n([C@H]2C[C@H](O)[C@@H](CO)S2)cc1CCF | >500 µM |
| COC(=O)[C@H](C)NP(=O)(OCC1C/C1=C/n1cnc2c(N)ncnc21)Oc1ccccc1 | 1 µM |
| COC1=CC(=O)c2c(cc(OC)c(C(C)C3=C(O)c4c(cc(O)c(C(C)=O)c4O)C(=O)C3=O)c2O)C1=O | 5.98 µg/mL |
| NC(=S)N=Nc1c(O)n(CN2CCN(c3cc4c(cc3F)c(=O)c(C(=O)O)cn4C3CC3)CC2)c2ccc(Br)cc12 | >0.097 µM |
| CSc1nsc(-c2ccccc2Cl)c1C#N | 5 µM |
| Cc1c(C(=O)Nc2ccccc2)[n+](=O)c2cc(Cl)ccc2n1[O-] | >10 µg/mL |
| COC1=CC(=O)c2c(cc(OC)c(C(C)C3=C(O)c4c(O)cc(O)cc4C(=O)C3=O)c2O)C1=O | 4.38 µg/mL |
| CC#Cc1cn([C@@H]2O[C@H](COP(=O)(N[C@H](C(=O)OC)C(C)C)Oc3ccccc3)[C@@H](O)[C@@H]2O)c(=O)[nH]c1=O | >500 µM |
| O=c1[nH]c(=O)n([C@@H]2O[C@@H](CO)[C@H](O)C2(F)F)cc1Br | >100 µM |
| CC(C)Nc1ncnc2c1ncn2C1C[C@H](CO)[C@@H](CO)C1 | >200 µg/mL |
| COc1ccc(C(=O)N2CC3=C(C(=O)O2)N2C(=O)[C@@H](NC(=O)Cc4ccccc4)[C@H]2SC3)cc1 | >128 µM |
| COc1cccc(Cn2cnc3c(-c4ccco4)ncnc32)c1 | >62.5 µg/mL |
| Nc1nc(=O)n(C2O[C@@H](CO)[C@H](O)C2(F)F)cc1Br | >100 µM |
| CC(C)c1ccc(NC(=O)N2CCC[C@H]2C(=O)N2CC[C@H]3[C@H]2[C@H](C)C(=O)N3C(=O)c2nccs2)cc1 | 280 µM |
| Nc1ccn([C@H]2O[C@@H](CO)[C@H](O)C2(F)F)c(=O)n1 | >100 µM |
| CC(C)c1ccc(NC(=O)N2CCC[C@H]2C(=O)N2CC[C@H]3[C@H]2[C@H](C)C(=O)N3C(=O)c2nc3ccccc3s2)cc1 | >500 µM |
| CC#Cc1cn([C@@H]2O[C@H](COP(=O)(Oc3ccccc3)Oc3ccc([N+](=O)[O-])cc3)[C@@H](O)[C@@H]2O)c(=O)[nH]c1=O | 110 µM |
| [N-]=[N+]=NC(CBr)c1cn(CCC(CO)CO)c(=O)[nH]c1=O | >540 µM |
| O=C(Cc1ccccc1)N[C@@H]1C(=O)N2C(C(=O)O)=C(CN(O)C(=O)c3ccccc3)CSC12 | >128 µM |
| O=c1[nH]c(=O)n([C@H]2C[C@H](O)[C@@H](CO)S2)cc1[N+](=O)[O-] | 476 µM |
| CC#Cc1cn([C@@H]2O[C@H](COP(=O)(O)OCCCCCCCCCCCC)[C@@H](O)[C@@H]2O)c(=O)[nH]c1=O | 131 µM |
| C[C@@]1(O)[C@@H](CO)O[C@@H](n2cnc3c(N)ncnc32)[C@@H]1O | 20 µg/mL |
| C/C1=C\C=C\C2(C)C=C(CO)C(C)CC23OC([O-])C(C3=O)C(O)/C=C/C2(C)C=C(CO)C(C)CC23OC([O-])C(C3=O)C(O)/C(C)=C/C=C/C2C=C(CO)C(C)CC23OC([O-])C(C3=O)C(O)/C=C/C2(C)C=C(C=O)C(C)CC23OC([O-])C(C3=O)C1O | >100 µg/mL |
| CSc1nsc(C)c1C#N | 100 µM |
| CCc1nc2cc(C)ccn2c1C(=O)NCc1ccc2c(c1)CCO2 | >32 µM |
| CC(C)c1cn([C@H]2C[C@H](O)[C@@H](CO)S2)c(=O)[nH]c1=O | >500 µM |
| Cc1ccn2c(C(=O)NCc3ccc(N4CCC(NC(=O)OC(C)(C)C)CC4)c(F)c3)c(C)nc2c1 | >32 µM |
| NC(=S)N=Nc1c(O)n(CN2CCN(c3cc4c(cc3F)c(=O)c(C(=O)O)cn4C3CC3)CC2)c2ccccc12 | >0.111 µM |
| CC#Cc1cn([C@@H]2O[C@H](COP(=O)(O)Oc3ccccc3Cl)[C@@H](O)[C@@H]2O)c(=O)[nH]c1=O | 305 µM |
| CC1(C)C(OC2O[C@H](C(=O)O)[C@@H](O)[C@H](N[C@@H]3O[C@H](CO)[C@H](O)[C@H](O)[C@H]3O)[C@H]2OC2O[C@H](O)[C@@H](O)[C@H](O)[C@H]2C(=O)O)CC[C@@]2(C)C1CC[C@]1(C)C2C(=O)C=C2C3C[C@@](C)(C(=O)O)CC[C@]3(C)CC[C@]21C | 32 µg/mL |
| O=c1ccn([C@@H]2O[C@@H](CO)[C@H](O)C2(F)F)c(=O)[nH]1 | >100 µM |
| COC(=O)[C@H](C)NP(=O)(OC[C@@H]1C[C@]12C[C@@H]2n1cnc2c(N)ncnc21)Oc1ccccc1 | 27 µM |
| O=c1[nH]c(=O)n([C@H]2C[C@H](O)[C@@H](CO)S2)cc1CC(F)(F)F | >500 µM |
| CC#Cc1cn([C@@H]2O[C@H](COP(=O)(O)Oc3ccc(OC)cc3)[C@@H](O)[C@@H]2O)c(=O)[nH]c1=O | >500 µM |
| C=C(C[C@@H]1C(=C)CC[C@@H]2[C@@]3(C)CCC[C@@]12C(=O)OC3)c1ccoc1 | >50 µg/mL |
| O=c1[nH]c(=O)n([C@H]2C[C@H](O)[C@@H](CO)S2)cc1C(F)=C(Cl)Cl | >500 µM |
| Cc1c(C(=O)Nc2ccccc2)[n+](=O)c2ccccc2n1[O-] | 1 µg/mL |
| COc1c(O)c2c(c(O)c1CCOC(C)=O)CCC(OC)C2=O | 0.33 µg/mL |
| COc1cc(O)c2c(=O)c3cccc(OC)c3[nH]c2c1 | >50 µM |
| CSc1nsc(-c2ccc(Cl)cc2)c1C#N | 5 µM |
| COc1cc(O)c2c(c1)[C@H](O)[C@@H](O)CC2=O | 26.35 µg/mL |
| Nc1ccn([C@H]2S[C@@H](CO)C=C2F)c(=O)n1 | >100 µM |
| Nc1ncnc2c1ncn2O[C@H]1CS[C@@H](CO)O1 | >100 µg/mL |
| CCn1cc(C(=O)O)c(=O)c2cc(F)c(N3CCN(C(=O)Cc4ccccc4Nc4c(Cl)cccc4Cl)CC3)cc21 | >16.73 µM |
| OC[C@@H]1OC[C@H](On2cnc3c(Cl)ncnc32)O1 | >100 µg/mL |
| NC(=O)N=Nc1c(O)n(CN2CCN(c3cc4c(cc3F)c(=O)c(C(=O)O)cn4C3CC3)CC2)c2ccccc12 | >0.019 µM |
| CCC(=O)OCCOCn1cnc2c(=O)oc(N)nc21 | 540 µM |
| COc1c(N2CCN(C(=O)Cc3ccccc3Nc3c(Cl)cccc3Cl)C(C)C2)c(F)cc2c(=O)c(C(=O)O)cn(C3CC3)c12 | >15.3 µM |
| C/C1=C\C=C\C2(C)C=C(CO[C@H]3O[C@H](CO)[C@H](O)[C@H](O)[C@H]3O)C(C)CC23OC([O-])C(C3=O)C(O)/C=C/C2(C)C=C(CO)C(C)CC23OC([O-])C(C3=O)C(O)/C(C)=C/C=C/C2C=C(CO[C@H]3O[C@H](CO)[C@H](O)[C@H](O)[C@H]3O)C(C)CC23OC([O-])C(C3=O)C(O)/C=C/C2(C)C=C(C=O)C(C)CC23OC([O-])C(C3=O)C1O | >100 µg/mL |
| O=C(Cc1ccccc1Nc1c(Cl)cccc1Cl)N/N=C/c1ccccc1Cl | >23.1 µM |
| CCc1nc2sc(C)cn2c1C(=O)NCc1ccc(S(F)(F)(F)(F)F)cc1 | >32 µM |
| O=c1[nH]cnc2c1ncn2[C@@H]1O[C@@H](CO)[C@H](O)C1(F)F | >100 µM |
| O=c1[nH]c(=O)n([C@H]2C[C@H](O)[C@@H](CO)S2)cc1/C=C/Cl | >500 µM |
| CC(C)c1ccc(NC(=O)N2CCC[C@H]2C(=O)N2CC[C@H]3[C@H]2[C@H](C)C(=O)N3C(=O)c2ccc([N+](=O)[O-])cc2)cc1 | 69 µM |
| CCCCCCCC(=O)N1CC2=C(C(=O)O1)N1C(=O)[C@@H](NC(=O)Cc3ccccc3)C1SC2 | 19.5 µM |
| O=c1ccn([C@@H]2O[C@H](CO)[C@](O)(C(F)(F)F)[C@H]2O)c(=O)[nH]1 | >200 µg/mL |
| Nc1ncnc2c1ncn2[C@H]1C[C@]12C[C@H]2CO | >100 µM |
| Nc1nc2c(ncn2[C@@H]2O[C@H](CO)[C@@H](O)[C@H]2O)c(=O)o1 | 680 µM |
| Nc1ccn([C@@H]2CC[C@H](CO)O2)c(=O)n1 | >125 µM |
| O=C(Cc1ccccc1)N[C@@H]1C(=O)N2C(C(=O)O)=C(CN(O)C(=O)c3ccc(F)cc3)CSC12 | >128 µM |
| COC(=O)[C@H](C)NP(=O)(OCC1C/C1=C/n1cnc2c(N)ncnc21)Oc1ccccc1 | <10 µM |
| C/C1=C\C=C\C2(C)C=C(CO[C@H]3O[C@H](CO)[C@H](O)[C@H](O)[C@H]3O)C(C)CC23OC([O-])C(C3=O)C(O)/C=C/C2(C)C=C(C=O)C(C)CC23OC([O-])C(C3=O)C(O)/C(C)=C/C=C/C2C=C(CO[C@H]3O[C@H](CO)[C@H](O)[C@H](O)[C@H]3O)C(C)CC23OC([O-])C(C3=O)C(O)/C=C/C2(C)C=C(C=O)C(C)CC23OC([O-])C(C3=O)C1O | >100 µg/mL |
| Nc1nc(=O)n([C@H]2O[C@@H](CO)[C@H](O)C2(F)F)cc1F | >100 µM |
| CCc1nc2ccc(Cl)cn2c1C(=O)NCc1ccc(NCCN2CCOCC2)c(F)c1 | >32 µM |
| O=c1ccn([C@@H]2C[C@H](CO)C[C@H]2CO)c(=O)[nH]1 | >200 µg/mL |
| Cc1cn2c(C(=O)NCc3ccc(N4CCCN(c5ccc(S(F)(F)(F)(F)F)cc5)CC4)cc3)c(C)nc2s1 | >32 µM |
| O=C(Cc1ccccc1Nc1c(Cl)cccc1Cl)N/N=C/c1ccccc1[N+](=O)[O-] | >22.62 µM |

A second listing of 7 rows from above:

structure | result
O=c1[nH]cnc2c1ncn2[C@H]1O[C@@H](CO)[C@H](O)C1(F)F | >100 µM
Nc1nc(=O)n([C@H]2O[C@@H](CO)[C@H](O)C2(F)F)cc1F | >100 µM
COc1cc(O)c2c(c1)[C@H](O)[C@@H](O)CC2=O | 26.35 µg/mL
CSc1nsc(-c2cc[n+](C)cc2)c1C#N | 1000 µM
CCCCCCCCCCSc1ncnc2c1ncn2CC(=O)OCC | >62.5 µg/mL
COc1cc(O)c2c(=O)c3cccc(OC)c3[nH]c2c1 | >50 µM
CC#Cc1cn([C@@H]2O[C@H](COP(=O)(O)Oc3ccccc3Cl)[C@@H](O)[C@@H]2O)c(=O)[nH]c1=O | 305 µM